PMC6610081
The exact form of at least one protein or probe is not confirmed. For some assays here: Tags and fusion partners may be left off the protein sequences shown.

The chains behind the UniProt entries cited, without tags or fusion partners.
UniProt G3XCV0, whole entry: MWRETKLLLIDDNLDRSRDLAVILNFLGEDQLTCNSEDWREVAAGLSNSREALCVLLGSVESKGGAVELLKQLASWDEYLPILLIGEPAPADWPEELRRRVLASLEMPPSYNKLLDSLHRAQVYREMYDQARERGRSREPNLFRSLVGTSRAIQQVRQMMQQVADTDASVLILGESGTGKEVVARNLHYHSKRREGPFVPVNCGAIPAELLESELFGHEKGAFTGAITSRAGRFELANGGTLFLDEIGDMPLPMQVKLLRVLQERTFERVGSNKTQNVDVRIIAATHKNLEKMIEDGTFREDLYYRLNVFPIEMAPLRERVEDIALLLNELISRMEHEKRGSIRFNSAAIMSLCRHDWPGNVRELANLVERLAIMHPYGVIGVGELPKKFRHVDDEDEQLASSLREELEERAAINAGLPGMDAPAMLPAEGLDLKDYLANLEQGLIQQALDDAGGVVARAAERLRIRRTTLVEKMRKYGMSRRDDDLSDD

What was measured:
Experiment in all cases: EMSA
[1] = target: T1, GacA (Pseudomonas aeruginosa PAO1) (UniProt Q51373); conditions: EMSA: 40 ng PCR probe in 20 ul, 10 mM Tris-HCl pH 7.4, 50 mM KCl, 5 mM MgCl2, 10% glycerol, room temperature 20 min, 6% PAGE; recombinant protein; protein details: His (pMCSG19); probe letters rebuilt from the primers and the genome
T1 sequence (looked up, limits assumed): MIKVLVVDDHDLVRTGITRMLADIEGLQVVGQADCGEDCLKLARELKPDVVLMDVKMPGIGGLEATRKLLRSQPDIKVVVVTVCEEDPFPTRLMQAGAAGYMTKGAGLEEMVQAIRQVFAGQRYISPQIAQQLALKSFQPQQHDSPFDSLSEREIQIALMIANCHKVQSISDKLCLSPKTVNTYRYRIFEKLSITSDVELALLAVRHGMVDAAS

[2] = target: FleQ (Pseudomonas aeruginosa PAO1) (UniProt G3XCV0); conditions: EMSA: 40 ng PCR probe in 20 ul, 10 mM Tris-HCl pH 7.4, 50 mM KCl, 5 mM MgCl2, 10% glycerol, room temperature 20 min, 6% PAGE; recombinant protein; protein details: His (pMCSG19); probe letters rebuilt from the primers and the genome
[3] = target: T2, AlgR (Pseudomonas aeruginosa PAO1) (UniProt P26275); conditions: EMSA: 40 ng PCR probe in 20 ul, 10 mM Tris-HCl pH 7.4, 50 mM KCl, 5 mM MgCl2, 10% glycerol, room temperature 20 min, 6% PAGE; recombinant protein; probe letters rebuilt from the primers and the genome
T2 sequence (looked up, limits assumed): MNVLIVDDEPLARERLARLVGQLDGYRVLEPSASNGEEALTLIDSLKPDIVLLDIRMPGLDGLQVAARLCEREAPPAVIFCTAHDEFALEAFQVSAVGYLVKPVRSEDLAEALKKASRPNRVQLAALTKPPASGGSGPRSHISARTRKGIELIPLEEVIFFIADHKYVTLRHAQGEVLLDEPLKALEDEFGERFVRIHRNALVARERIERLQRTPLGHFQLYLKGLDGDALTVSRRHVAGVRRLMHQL

[4] = target: T3, PhoB (Pseudomonas aeruginosa PAO1) (UniProt P23620); conditions: EMSA: 40 ng PCR probe in 20 ul, 10 mM Tris-HCl pH 7.4, 50 mM KCl, 5 mM MgCl2, 10% glycerol, room temperature 20 min, 6% PAGE; recombinant protein; protein details: His (pMCSG19); probe letters rebuilt from the primers and the genome
T3 sequence (looked up, limits assumed): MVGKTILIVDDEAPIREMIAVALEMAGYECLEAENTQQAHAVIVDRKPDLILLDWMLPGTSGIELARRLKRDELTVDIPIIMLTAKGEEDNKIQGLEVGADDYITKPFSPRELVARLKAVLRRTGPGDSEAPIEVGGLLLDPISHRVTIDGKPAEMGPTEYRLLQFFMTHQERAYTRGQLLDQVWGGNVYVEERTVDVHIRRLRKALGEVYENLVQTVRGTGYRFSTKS

[5] = target: T4, ExsA (Pseudomonas aeruginosa PAO1) (UniProt P26993); conditions: EMSA: 40 ng PCR probe in 20 ul, 10 mM Tris-HCl pH 7.4, 50 mM KCl, 5 mM MgCl2, 10% glycerol, room temperature 20 min, 6% PAGE; recombinant protein; protein details: His (pMCSG19); probe letters rebuilt from the primers and the genome
T4 sequence (looked up, limits assumed): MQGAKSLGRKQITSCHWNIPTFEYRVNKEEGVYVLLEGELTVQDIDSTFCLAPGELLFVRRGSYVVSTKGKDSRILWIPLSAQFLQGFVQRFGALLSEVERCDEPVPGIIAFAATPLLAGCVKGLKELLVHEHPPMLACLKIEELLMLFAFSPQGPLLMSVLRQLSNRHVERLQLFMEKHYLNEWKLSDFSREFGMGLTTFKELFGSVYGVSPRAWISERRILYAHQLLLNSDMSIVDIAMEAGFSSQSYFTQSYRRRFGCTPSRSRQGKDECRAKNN

Sequence | binding result [2] | binding result [4] | further results
CGGTTACCTCTTGCACGCGATGCTATCGCCCTGAAGGCGTCAGGGCTTCGTTATTCCATGCGGATGTCGTTTCGGTTGATTTTCGTACGCTGGGCTTCCGGCAATCACTACCTTGCGTAAGGGGTTGACAGGAGCGGGGTCTGCGTATAGCCGCGCCTCCGCGACGCCGTGCCGATCGGTCGTGCATGCTTGCCGTGGCCCGGCTGAGCACTGCCGTCCCGGCCACTCTCGCCGGGGTGGCTGCGCCTGGATGATCGTCGTGGGCGGTGGTGGCGCGGGCCGGTCGCCCTGAGCTTCAGGCGCCATCGCCGCTTGCCGGCGCTCGGGAGGCCGCTGGCCAAGGAAAACCGTAGCGCCGCGGCGGGCGGCGGCTAGCGGGGATTTCCGGCCACGCGTGCCGTGCCCGGGCCACGCTTGCCTTCCCGGCGCGCCGGACTCCCGGTGGCCTGGAGGACAGGAAAAGCGAGCGGCGAGGTGTCGGCGAGCAGGGTCAACTCGATCTTCTGATAGGGTCGGTGGGCTGTCCGGGGCGGCTAGGATGGACATTTTCATCGTCTCGGGCAGGCCTGTCGCGACCGCGCGAAGTCGCGACGGATGCCGCTGCTAAGGAGCAACGG (double strand) [pqsH-cdpR intergenic region] |  |  | binding result [1]: binds
TCAGCCGCCGGCGGCTTCCGGCCGCCGGCCTTCGCTCGACTGCCTGGGTCGAGGGCCGTGCGGCGCGTCCTCCGGTTATTTGGCGAACCCCGGGAGTACGGATTGCCTGGCGCGGATCACTCGTCCCTGTCCGCCTTATCGATAAGTCGGTTCCGAACTCTTTTTCGGTAGTTCATTCAGATGGATGAGTGAAGAGGGCAGATGGAAAGTATCTGCTCGGGAATTCAATGTTCAGAAGAGTGGAGAAGTATTACTTTCTCACTGTTCTTCAGGTACGTTCCGGCTGCCCGCCGTTTCTTATTGGATGAAGTCACTCCTGTGCCTCTGCGCTCGCGCCGCACGGAGAATATCGTCGAGAGGTTCCTCAATAGTGAGTGGAGCTGGCTGACGCGGTATCTCGGTTGTCGGGCGGAGTTGTTCTATATGTTCGAACTTGGCTTTGCTCGTTGTTTTAAGTTTGCGGAATAACCTCTGGAACTATTCATATGAATTTTTGAAAGTTTGGTTTACCTGAGAGATTTATGAGTTGACCTTGTCACGATGGCAGGACTCATGGTTCGCAGGAGTCAACAAACCAGGAGGTTGCG (double strand) [PA3520 promoter] | binds |  | 
CGAACACCTCGTATCCAGCGGAATCGGGGCGGAACGGCCGCCCGGCGGAAGTTGCATCGCTACAAGGTGAGCGTCCGACAGCGGACCACCCACCCGCCCCGACGCTGGGGCGAAACGACGAAGACGCCACGGGCCTCTGCCGGGAAGGAGAGGCCGCGCGACGTCTTTGTCGGGGATGGGTAACCGCCGTTGGCTACCGTCAGGCAGGACGTAGCAAGCTCTTTGCCAAGTTGTCGAAAGCGCGGCGTAGAGCGGTTGCAGGGACAACCATGGCGTCGGGCGTGCACGCCGCGGTGGCAGGCGTCGGGGGCTTGCACAGGGCTGGGGCGGCGCGTCCGTGCGCCGTCGGCGGT (double strand) [nasA promoter] |  |  | binding result [1]: binds
GCCGGGCTACAACCCGGACAGCGCCGTGCAGGTGCTCGGCGCCGGAGCCCTCGGCGAACAGGCGCGCAGCCAATTGACCGATGAAGAGCGCGGCAACCTGATCCTGTAAGGCACCGCCGCGGAGGCACGATACCCGCCAGGCCCTCCCCACGGAGGGCCTTTTTTTCGGCGAACTTCCGAGGTGCTGGTCGATTCTCGGGTGAATGCCCGTTCGTCCCCGCCGGCGGCGCGCGAACGGCCGGTCGCATGAAGTTTTCATGACAAAAGTTCGGTGGTGCGGCGGGGTTGCCGTCAAACAGGTGTGAATGAGGAAAACGGAATTCAGTGGTGAAAGGCAGGGACGGGAACGAAAGGAATCGGCCATTTCCCGGTTGCGCTGACCGGTTGCTGGAAATGAGCGTGTCGTTCGAGAAAGACGCGTTCCGCTCTGAAACAAGAGAACAGTATCCGCTAACGGCCGTGGTCACTCCGGTGAATACGGCGAAGGACGGTGAGTATTG (double strand) [phdA promoter] |  |  | binding result [3]: binds
GGGTATCTCCTTTGGCACGGTGGATGCCCGAGGAGACAGGTTGGGAGGGAGTTCACCGGACCGCCGCCTCGGGCGGTTCGGGAATGCAGCGACGCATCTACCGCCTCAATGAGGGAGCAGATAGGCGTAATAGCGCTTGAAGGTCAGGGCTGCACGATTCATGCGCGGCACTCTACGCGCCTGTGCCGGGCTGTCAAGACTGGAAAGCGCCTCGACACGAACCGAAGCACTTCCCCGCAACAGAAGCGCAGCCTGGGAAAGTTTGCCCGCTAGTTATCCGCACAAATTTATGACGCCGGTTTCTCTACTTTGAAAAACAACGCAAGACCGGACATGGACTTCAATAACTCGACCGGAAGAAACCTATCAGCAAGGCAGTTGAATTTTTTCCGAAAGCAATAATTCGATACTTTTCTGGATTGGCGCATCATCTCATAAAAATAGCGAACCGCTTCCCAGTACCCACGAATATCAATGGATCAGCAATATCCAGATGCTTATCGCGGCATTCGAAAAAACATCGACCAATTCCACTGACAGAATATCGGCGTCATTTGCCTAGCATGGATATTCCAAGTTCACCCTATCAACTTCCCAGATTGACACTCTCGCCGGCAGATCAGTAATTTTCAGCGACCAGCCGGCAAAGTACTTTTCCAGAGCGGCTGGCAACCGATAGTCACTCTATCTTCGCAAACCGATGTTTATGCGAGAGGGCCGGCTATCGCTCAAAACTTGATTGATGAAGGAATAGCGCC (double strand) [PA4139 promoter] | binds | binds | 
AGCGTCGACCCGGCCCCCTGGCGGAGCGATCCGCCAGGGGGCTGTTTTTTTCCGACAACCTACGGGATTGACTTTCCCTGGCCCTCCCCATGTTTCCATGAAGTTTCCGGAATATTCACGGGGAGCGGACATCGAGTATTAATGAACCCTTAAAGAAACAGGACTCGGGTTATTAATAAAAGCCACTCAGAAAACACCCGAGATCCTTTCCAACCCTGCAAGCCCCTGAAAAAGAGGCTTCCGGCTTTATCCTCCAGTTTCTTCGAGTTCGTTCAGTCTTCATTCAGCCGTTGTTAAGCGAGTCTTAACAAACGTTCAGGCAGCATTCAGCGACATATAAATAACCTCTTCGTACCGCCCTCCCAGTACCGAGGCTTCATTAC (double strand) [arnB promoter] | binds |  | 
GGGCCGCTGCTCCGCGATTCCGCGGTAGGGGAAAAAGCTCGTTCCATCTCGCGACCTACCCGAAACGACTACATCCAAAGGTGTAATTCTACATTGCCATCACTTCGATCGTCGGACAATAGCCGCGTTCCAGACGCCTTGCACAGGTGACGAACGGGACTCGAAGCGGCCTGGTCTGCATGGCCGGGTGATGGGCGAGTTCCTTGATGCGGGGCGGCGGCTGTTTGGCGCAGGACAAAAAAAGCCCCGCCGGGTAGGCGAGGCTCAGGGGGAGAACAGCGTGCGGGGGCTCGCTGTCCGGGATGAATCGTCGTGGTGCGC (double strand) [PA3662 promoter] | binds |  | 
CCGCGAGGCGGTGCGCAGCGTGCAGGCAGCAGGTGCCCTAGCGGATCAGACTGTTAAGGTTGGGAAGGATCAGGATGACTGTGGTGGCGAAGACGATGAGGCTCGCTTGCCGCCATCTTTTTGGCTGCTCGTTCAACATGGCCTGTCTGCCTTTCTTGTTGTCGGGTGGCTGCCTGCTCCGCGCTACGGCCCGGCGGAACGGCTTGCCACGCAGTGGCGTACTCTTCGGTCGGCCCGGCATCCCCGGCGTCGACCTCCCTTTCGAACGCTTGCATGAATCAGTCTAAGCCCCGGCCTGCGCGGGCTTAGACCACTTGGATACAAGCTGCTGCGGTCTAGACATATTCCCTCTATATGACAGCGTGGTGACGGCTCTGGCGTGCGTCTCGACCGTTCGTCCGGTGTCCGGGTTTCCGGTCGAAAGATGGCATGGTGCTATCTTCCCGGCGTTGCAGGCTGAGCTGGGCGGTCAATCAGCCTGAGCGGTTCGGTCATTGTCCCGCCGGCGAGCCTGTTTAAGGTAGGCGGAGGCCCGCTCGGCCGGACGAGAACAGGATAAGAGAGACCGCC (double strand) [PA1736 promoter] |  | binds | 
GGCGGCACAATATTGACCTGGATCAATCGCCCGGACGGGCTTTTTCGGCCAGGTGCATGACACTGACCCAGGTCAAGTTTCGCAGGAGGGAGAATGCGGTCGGACGCCGCAGATAACCGGGAAAAACCTGCCCGATCGCCGCACGTTGCCCGCAGGAATGCGCCGCCGGCGAACGCGGCGGCGGAGGCTTCAGCGCTTCTTCGGCTTGCCTTTCGGCTTCTTCCGCGGCTTGCCCAGCGGCAACACCTGTTCGAAGGCCTTGCGGACCTCCTGCAGGCGCTTCTCGTGCACGTCGTGGATGCGCTTGTCGCGCTCGGCGCTGAGGTCGATCACCTTGTCGTCGTCGTTCATGGCTGGGGGTACACCAGGCGGAAGGTCAGGTTCAAACG (double strand) [phrS promoter] |  |  | binding result [5]: binds
GCTTCTTCTCCACAGTAAACGCGGCCGGGCCGCAGGCGCGGCGCTGGTGGGCGCCGGTACGAACCGGGCGGCGGGACCTTCTGGGGTCGTCCCGGGCGCCGCGGTTCGGATGTGGCCATTTCGCCTGGGAGATGTATCGGGGGTGTATCGCCCGACACGTGGATTTGTACGCCGGAGGTATCGAAACCGCGCATGGATACAAAGCGATACGCAATCGAGCGCGGGCATGCCGACGAAGTGCCGGGCATCTCTCACTCCCGCCGGCCCATCTCGGCTACCGTTAGGAGACAGCCACCTGGCCCAGTCTCGAGGTCGAGCCCATC (double strand) [PA4108 promoter] |  | binds | 
